In patent publication US6635636B1, “Substituted 6-benzyl-4-oxopyrimidines, process for their preparation and pharmaceutical compositions containing them” (Idenix Pharmaceuticals, Inc., priority 1998, dated 2003):

Tested on: HIV-1 (IIIB strain)
Experiment: Anti-HIV-1 assay: inhibition of virus-induced cytopathicity in acutely infected MT-4 cells (MTT)
Format: cell-based
Conditions: CC50/EC50 ratio
Experimental: Compounds. Compounds were solubilized in DMSO at 200 mM and then diluted into culture medium.
Cells and viruses. MT-4, C8166, H9/IIIB and CEM cells were grown at 37° C. in a 5% CO2 atmosphere in RPMI 1640 medium, supplemented with 10% fetal calf serum (FCS), 100 UI/mL penicillin and 100 μg/mL streptomycin. Cell cultures were checked periodically for the absence of mycoplasma contamination with a MycoTect Kit (Gibco). Human immunodeficiency virus type-1 (HIV-1, IIIB strain) was obtained from supernatants of persistently infected H9/IIIB cells.
Anti-HIV assays. Activity of the compounds against HIV-1 and HIV-2 multiplication in acutely infected cells was based on the inhibition of virus-induced cytopathicity in MT-4 and C8166 cells, respectively. Briefly, 50 μL of culture medium containing 1×10^4 cells were added to each well of flat-bottom microtiter trays containing 50 μl of culture medium with or without various concentrations of the test compounds. Then 20 μL of an HIV suspension containing 100 CCID50 were added. After a 4-day incubation at 37° C., the number of viable cells was determined by the 3-(4,5-dimethylthiazol-[…])-2,5-diphenyltetrazolium bromide (MTT) method. Cytotoxicity of the compounds was evaluated in parallel with their antiviral activity. It was based on the viability of mock-infected cells, as monitored by the MTT method.

How did the “SI (selectivity index, CC50/EC50 ratio)” value turn out when `O=c1cc(Cc2c(F)cccc2F)nc(NC2CCCC2)[nH]1` [MC 1022] was run?
The value was >2,222.
